Measured values taken from US20250043259, “ENDONUCLEASES THAT SELECTIVELY CLEAVE SINGLE-STRANDED NUCLEIC ACIDS AND USES THEREOF” (INSTITUT NATIONAL DE LA RECHERCHE SCIENTIFIQUE, published 2025).
The exact form of at least one protein or probe is not confirmed. No signal at the amounts used counts as a negative. Where a protein sequence is shown, tags need not be part of it.

Molecular target: T1, SsnA (NMV_0044) (Neisseria meningitidis 8013 2C4.3) (UniProt Q9K1N6)
T1 sequence (looked up, limits assumed): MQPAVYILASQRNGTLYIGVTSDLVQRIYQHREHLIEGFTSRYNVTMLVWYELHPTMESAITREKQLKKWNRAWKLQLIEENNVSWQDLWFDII
Experiment: EMSA
Details: [none (strand 2 printed 3'-5', reversed here)]; no recognition sequence; purified recombinant protein; protein details: N-terminal 6xHis; folded or branched …; letters built from the parent sequence and the stated change

“AGGAACCTCGAGGGATCCGTCCTAGCAAGCCGCTGCTACCGGAAGCTTCTCGAGGTTCCT / AGGAACCTCGAGTCTAGACTGCAGTTGAGAGCTTGCTAGGACGGATCCCTCGAGGTTCCT [Pseudo-Y]”: no binding.
